Reference: the supplement of paper PMC9931576
Human monoclonal antibodies against the spike receptor-binding domain (heavy:light variable regions). IC50 against pseudoviruses bearing the spike of naturally observed variants; lower = stronger; >10 µg/ml means not reached at the top dose. No active / inactive call. The stated detection limit is 0.0005 µg/ml; values near or below 0.001 µg/ml lie at the floor of the assay.

B1: BD56-1357 (protein)
chain 1: QVQLVQSGSELKKPGASVKVSCKASGYTFNSYVINWVRQAPGQGLEWMGWINTNTGNPTYAQGFTGRFVFSLDTSVSTAYLQISSLKAEDTAVYYCAREGGIATRDWFDPWGQGTLVTVSS
chain 2: QSVLTQPPSVSEAPRQRVTISCSGSSSNIGNNAVKWYQQLPGKAPKLLIYYDDLLSSGVSDRFSGSKSGTSASLAISGLQSEDEADYYCAAWDDSLNGLVFGGGTKLTVL
B2: BD56-1368 (protein)
chain 1: EVQLVESGGGLIQPGGSLRLSCAASGFIVSSNYMSWVRQAPGKGLEWVSVIYPGGTTYYADSVKGRFSISRDNSKNTLYLRMNSLRAEDTAVYYCARSRGWGTFDYWGQGTLVTVSS
chain 2: DIQMTQSPSSLSASVGDRVTITCQASQDIANYLNWYQQKPGKAPKLLIYDASNLETGVPSRFSGSGSGTDFTFTISSLQPEDIATYYCQQYDNLPPYTFGQGTKLEIK
B3: BD56-1370 (protein)
chain 1: QVQLQESGPGLVKPSETLSLTCTVSGGSISNNYWSWIRQPPGKGLEWIGYIYYTGSTNYNPSLKSRVTISVDTSKNQFSLKLSSVTAADTAVYYCARVDWSYSGGGYFDYWGRGTLVTVSS
chain 2: SYVLTQPPSVSVAPGQTARITCGGNNIGTESVHWYQQKPGQAPVVVVYDDSDRPSGIPERFSGSDSGNTATLTIRRVEAGDEADYYCQVWDTSDHVIFGGGTKLTVL
B4: BD56-1372 (protein)
chain 1: EVQLVESGGGVVQPGGSLRLSCAASGFTFDNFAMHWVRQAPGKGLEWVSLISGDGSRIYYGDSVKGRFTISRDNSKDSLYLQMNSLRTEDTALYYCGKDMGFGPPAKYYYYMDVWGKGTTVTVSS
chain 2: QSVLTQPPSASGTPGQRVTISCSGSSSNIGNNYVYWYQQLPGTAPKLLIYRNNQRPSGVPDRFSGSKSGTSASLAISGLRSEDEADYYCAAWDDSLSGGVFGGGTKLTVL
B5: BD56-291 (protein)
chain 1: EVQLVQSGAEVKKPGESLKISCQGSGYSYINFWIAWVRQMPGKGLEWMGIIYPDDSDTRYNPSFQGQVTMSVDKSISTAYLQWTTLKASDTAIYYCARHNNNWYGDYYYALDVWGQGTTVTVSS
chain 2: DIQMTQSPSSLAASVGDRITITCQATQDISNYLNWYQQKPGKAPKLLIYDASNLETGVPSRFSGSGSGTDFSLTISSLQPEDIATYYCQQFDNLPLTFGGGTKVQIK
B6: BD56-1373 (protein)
chain 1: QVHLVQSGTEVKKPGASVKVSCKASGYSFTSYDINWVRQATGQGLEWMGWMNPISGDTGFAQKFQGRVTMTRNTSLSTAYMELSSLRSEDTAVYYCARGARTEFQGELTLFDYWGQGTLITVSS
chain 2: HSALTQPASVSGSRGQSITISCTGTSSDVGSYNLVSWYQQHPGKAPKLIIYEVSKRPSGVSNRFSGSKSGNMASLTISGLQAEDEAEYYCCSYAGGSTVFGGGTKLTVL
B7: BD56-1376 (protein)
chain 1: EVQLLESGGGLVQPGGSLRLSCAASGFTFRSYAMSWVRQAPGKGLEWVSVIYSDDRITYYADSVMGRFTISRDNSKNTLYLQMNSLRAEDTAVYYCAKGDYGSGTYYNPPPDYWGQGTLVTVSS
chain 2: QSVLTQPPSASGTPGQRVTISCSGSRSNIENNYVYWYQQLPGTAPKLLVYRNNQRPSGVPDRFSASKSGTSASLAISGLRSEDEADYYCAAWDDSLSPWVFGGGTKLTVL
B8: BD58-0453 (protein)
chain 1: EVQLVESGGGLVQPGGSLRLSCAASGFTFRSYWMHWVRQAPGKGLVWVSRINSDGSSTSYADSVKGRFTISRDNAKNTLYLQMNSLRAEDTAVYYCARDPIMGTGMVKGDYWGQGTLVTVSS
chain 2: NFMLTQPHSVSESPGKTVTISCTGSSGSIASNYVQWYQQRPGSAPTTVIYEDNQRPSGVPDRFSGSIDSSSNSASLTISGLKTEDEADYYCQSYDSSNWVFGGGTKLTVL
B9: BD58-0480 (protein)
chain 1: EVQLVESGGGLVKPRGSLRLSCAASGFTFSSAWMSWVRQAPGKGLEWVGRIESKTDGGTTDYAAPVKGRFTISRDDSKNTLYLQMNSLKTEDTAVYYCNTGASSGPFYYYGLDVWGQGTTVTVSS
chain 2: QSVLTQPPSASGTPGQRVTISCSGSSSNIGSYYVYWYQQLPGTAPKLLIYSNNQRPSGVPDRFSGSKSGTSASLAISGLRSEDEADYYCAAWDDSLGGLYVFGTGTKVTVL
B10: BD58-0520 (protein)
chain 1: QVQLVQSGAQVKKPGASVKVSCTASGYTFSNYYIHWVRQAPGQGLEWMGTINPNSGTTSDTRKFQGRVTMTRDTYTRTVYMELSSLRSEDTAVYYCARQALVAVGTGESLDYWGQGTLLTVSS
chain 2: DIQMTQSPSSLSALVGDRVTITCRASQNIRRYFNWYQQTPGKAPKLLIYGTTNLQTGVPSRFSGSGSGTDFTLNISSLQPEDIATYYCQQTYGSPWTFGQGTKVEIK

target: SARS-CoV-2 Omicron BA.1 spike pseudovirus; assay: pseudovirus neutralization IC50; higher = weaker neutralization
Protocol: (§1)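 Single-round VSV luciferase pseudovirus mixed with antibody dilutions for 1 h and put on Huh-7 cells for about a day; IC50 from the dose curve.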

| Binder | pseudovirus neutralization IC50 [µg/mL] |
| --- | --- |
| B1 | 0.0083 |
| B2 | 0.00923 |
| B3 | 0.000503 |
| B4 | 0.0168 |
| B5 | 0.0196 |
| B6 | 0.00227 |
| B7 | > 10 |
| B8 | > 10 |
| B9 | > 10 |
| B10 | > 10 |

target: SARS-CoV-2 Omicron BA.2 spike pseudovirus; assay: as above
Protocol: as §1

| Binder | pseudovirus neutralization IC50 [µg/mL] |
| --- | --- |
| B1 | 0.0016 |
| B2 | 0.000433 |
| B3 | 0.000278 |
| B4 | 0.00283 |
| B5 | 0.129 |
| B6 | 0.000322 |
| B7 | 0.00195 |
| B8 | > 10 |
| B9 | > 10 |
| B10 | > 10 |

target: SARS-CoV-2 Omicron BA.2.75 spike pseudovirus; assay: as above
Protocol: as §1

| Binder | pseudovirus neutralization IC50 [µg/mL] |
| --- | --- |
| B1 | 0.00148 |
| B2 | 0.0298 |
| B3 | 0.000181 |
| B4 | 0.531 |
| B5 | 3.21 |
| B6 | 0.000122 |
| B7 | > 10 |
| B8 | > 10 |
| B9 | > 10 |
| B10 | > 10 |

target: SARS-CoV-2 Omicron BA.2.75.2 spike pseudovirus; assay: as above
Protocol: as §1

| Binder | pseudovirus neutralization IC50 [µg/mL] |
| --- | --- |
| B1 | 3.84 |
| B2 | > 10 |
| B3 | 0.00598 |
| B4 | > 10 |
| B5 | > 10 |
| B6 | 0.00583 |
| B7 | > 10 |
| B8 | > 10 |
| B9 | > 10 |
| B10 | > 10 |

target: SARS-CoV-2 Omicron BA.5 spike pseudovirus; assay: as above
Protocol: as §1

| Binder | pseudovirus neutralization IC50 [µg/mL] |
| --- | --- |
| B1 | > 10 |
| B2 | 0.000566 |
| B3 | 0.00114 |
| B4 | 0.0129 |
| B5 | > 10 |
| B6 | 0.00044 |
| B7 | > 10 |
| B8 | > 10 |
| B9 | > 10 |
| B10 | > 10 |

target: SARS-CoV-2 Omicron BM.1.1.1 spike pseudovirus; assay: as above
Protocol: as §1

| Binder | pseudovirus neutralization IC50 [µg/mL] |
| --- | --- |
| B1 | > 10 |
| B2 | > 10 |
| B3 | 0.00321 |
| B4 | > 10 |
| B5 | > 10 |
| B6 | 0.113 |
| B7 | > 10 |
| B8 | > 10 |
| B9 | > 10 |
| B10 | > 10 |

target: SARS-CoV-2 Omicron BQ.1.1 spike pseudovirus; assay: as above
Protocol: as §1

| Binder | pseudovirus neutralization IC50 [µg/mL] |
| --- | --- |
| B1 | > 10 |
| B2 | 0.88 |
| B3 | 0.0229 |
| B4 | 0.948 |
| B5 | > 10 |
| B6 | 0.00209 |
| B7 | > 10 |
| B8 | > 10 |
| B9 | > 10 |
| B10 | > 10 |

target: SARS-CoV-2 Omicron BR.2 spike pseudovirus; assay: as above
Protocol: as §1

| Binder | pseudovirus neutralization IC50 [µg/mL] |
| --- | --- |
| B1 | > 10 |
| B2 | 0.433 |
| B3 | 0.00383 |
| B4 | 0.731 |
| B5 | > 10 |
| B6 | 0.0558 |
| B7 | > 10 |
| B8 | > 10 |
| B9 | > 10 |
| B10 | > 10 |

target: SARS-CoV-2 Omicron CA.1 spike pseudovirus; assay: as above
Protocol: as §1

| Binder | pseudovirus neutralization IC50 [µg/mL] |
| --- | --- |
| B1 | > 10 |
| B2 | > 10 |
| B3 | 0.00491 |
| B4 | > 10 |
| B5 | > 10 |
| B6 | 0.0165 |
| B7 | > 10 |
| B8 | > 10 |
| B9 | > 10 |
| B10 | > 10 |

target: SARS-CoV-2 Omicron XBB spike pseudovirus; assay: as above
Protocol: as §1

| Binder | pseudovirus neutralization IC50 [µg/mL] |
| --- | --- |
| B1 | > 10 |
| B2 | > 10 |
| B3 | 0.0557 |
| B4 | > 10 |
| B5 | > 10 |
| B6 | 0.00331 |
| B7 | > 10 |
| B8 | > 10 |
| B9 | > 10 |
| B10 | > 10 |

target: SARS-CoV-2 early D614G spike pseudovirus; assay: as above
Protocol: as §1

| Binder | pseudovirus neutralization IC50 [µg/mL] |
| --- | --- |
| B1 | > 10 |
| B2 | > 10 |
| B3 | > 10 |
| B4 | > 10 |
| B5 | > 10 |
| B6 | > 10 |
| B7 | > 10 |
| B8 | > 10 |
| B9 | > 10 |
| B10 | > 10 |
